Test results published in patent US10408836B2 (priority 2013, dated 2019).

Test system: influenza virus
Format: binding

EGFR: epidermal growth factor receptor, recombinant host protein used as capturing agent
viral capture, ranking of receptors: least effective
